Measured values from several laboratories, pooled; numbers as filed in NIAID ChemDB.

All rows: growth or infection tests; species: Candida albicans; endpoint: MIC

Lines come from different laboratories, so protocols vary.

{"SMILES": "Cc1cc(NC(=O)CCN2C(=O)S/C(=C\\c3cccc(Br)c3)C2=O)ccc1Cl", "result": ">100 µg/mL"}
{"SMILES": "Cc1c(C(=O)c2ccccc2)oc2ccc(Cl)cc12", "strain": "Clinical isolate", "result": "50 µg/mL"}
{"SMILES": "CCOC(=O)c1csc(NC(=O)CSc2nnc(C(C)Oc3ccc(C)cc3)n2C2CCCCC2)n1", "strain": "Clinical isolates", "result": ">16 µg/mL"}
{"SMILES": "C[C@@H](SC1COC(/C=C/C=C/c2ccc(C#N)cc2F)OC1)[C@](O)(Cn1cncn1)c1ccc(F)cc1F", "strain": "SANK51486", "result": "≤0.008 µg/mL"}
{"SMILES": "CNc1ccc(C(=O)CC(O)CCC(C)C2OC(=O)CC(O)CC(=O)CC(O)CC(O)CC(O)CC(O)CC3(O)CC(O)C(C(=O)N4CCN(C)CC4)C(CC(O[C@@H]4O[C@H](C)[C@@H](O)[C@H](NC(=O)CN5CCN(CCO)CC5)[C@@H]4O)/C=C/C=C/C=C/C=C\\C=C/C=C/C=C/C2C)O3)cc1", "strain": "200", "result": "0.03 µg/mL"}
{"SMILES": "O=C(CCN1C(=O)S/C(=C\\c2ccccc2Br)C1=O)Nc1ccccc1O", "result": "12.5 µg/mL"}
{"SMILES": "Cc1c(O)cccc1C(=O)N[C@@H](CSc1ccccc1)[C@H](O)CN1C[C@H]2CCCC[C@H]2C[C@H]1C(=O)NC(C)(C)C", "strain": "I131B", "result": "64 µg/mL"}
{"SMILES": "CC(Oc1ccccc1)c1n[nH]c(=S)n1C1CCCCC1", "strain": "NRRL Y-27077", "result": "16 µg/mL"}
{"SMILES": "CCCCCCCC(=O)N[C@H]1CC2C(=O)NCCC[C@H](NC(=O)c3ccc(-c4ccc(-c5ccc(OCCCCC)cc5)cc4)cc3)C(=O)NC(C(C)O)C(=O)N3C[C@H](O)CC3C(=O)NC(CCc3ccc(O)cc3)C(=O)NC(C(C)O)C(=O)N2C1", "strain": "ATCC CCH442", "result": "50 µg/mL"}
{"SMILES": "Nc1ncnc2c1ncn2[C@@H]1O[C@H](C(=O)NCC(=O)O)[C@@H](NC(=O)[C@H](N)CSCc2ccccc2)[C@H]1O", "strain": "FP633", "result": "100 µg/mL"}
{"SMILES": "CCOC(=O)c1csc(NC(=O)CSc2nnc(C(C)Oc3ccc(C)cc3)n2-c2ccccc2)n1", "strain": "Clinical isolates", "result": "16 µg/mL"}
{"SMILES": "CCCCCOc1ccc(-c2ccc(-c3ccc(C(=O)N[C@H]4CCCNC(=O)C5C[C@H](N)CN5C(=O)C(C(C)O)NC(=O)C(Cc5ccccc5)NC(=O)C5C[C@@H](O)CN5C(=O)C(C(C)O)NC4=O)cc3)cc2)cc1", "strain": "ATCC 10231", "result": "1.56 µg/mL"}
{"SMILES": "O=[n+]1c(Sc2ccccc2)c(CBr)n([O-])c2ccccc21", "strain": "Clinical isolate 8", "result": "31.25 µg/mL"}
{"SMILES": "O=C(CCN1C(=O)S/C(=C\\c2ccccc2Cl)C1=O)Nc1ccccc1[N+](=O)[O-]", "result": "25 µg/mL"}
{"SMILES": "CC(O)C1NC(=O)C(CCc2ccc(O)cc2)NC(=O)C2C[C@@H](O)CN2C(=O)C(C(C)O)NC(=O)[C@@H](NC(=O)c2ccc(N3CCN(c4ccc(OCc5ccccc5)cc4)CC3)cc2)CCCNC(=O)C2C[C@H](N)CN2C1=O", "strain": "ATCC CCH442", "result": "0.2 µg/mL"}
{"SMILES": "CCOC(=O)c1csc(NC(=O)CSc2nnc(C(C)Oc3ccccc3)n2-c2ccccc2)n1", "strain": "Clinical isolates", "result": ">16 µg/mL"}
{"SMILES": "Cc1ccc(NC(=O)CCN2C(=O)S/C(=C\\c3ccccc3)C2=O)c(Cl)c1", "result": "25 µg/mL"}
{"SMILES": "C[C@H](n1nnnc1CCN1CCN(c2ccc(Cl)cc2)CC1)[C@](O)(Cn1cncn1)c1ccc(F)cc1F", "result": "2 µg/mL"}
{"SMILES": "Cc1c(/C(=N/O)c2ccccc2)oc2ccc(Cl)cc12", "strain": "Clinical isolate", "result": "12.5 µg/mL"}
{"SMILES": "CCCCCOc1ccc(-c2ccc(-c3ccc(C(=O)N[C@H]4CCCNC(=O)C5CNCN5C(=O)C(C(C)O)NC(=O)C(CCc5ccc(O)cc5)NC(=O)C5C[C@@H](O)CN5C(=O)C(C(C)O)NC4=O)cc3)cc2)cc1", "strain": "ATCC CCH442", "result": "0.78 µg/mL"}
{"SMILES": "Cc1ccc2oc(C(=O)c3ccccc3)c(C)c2c1", "strain": "Clinical isolate", "result": "50 µg/mL"}
{"SMILES": "O[C@](Cn1cncn1)(Cn1cnc(/C=C/c2ccc(OCC(F)(F)C(F)F)cc2)n1)c1ccc(F)cc1F", "strain": "Isolate 02-96", "result": "4 µg/mL"}
{"SMILES": "Cc1ccc(OC(C)c2n[nH]c(=S)n2-c2ccccc2)cc1", "strain": "Clinical isolates", "result": "16 µg/mL"}
{"SMILES": "O/N=C(\\c1ccc(Cl)cc1)c1oc2ccc(Cl)cc2c1Cn1ccnc1", "strain": "Clinical isolate", "result": "25 µg/mL"}
{"SMILES": "CCOc1cc2c(cc1F)n([O-])c(C)c(Cl)[n+]2=O", "strain": "Clinical isolate 11", "result": "62.5 µg/mL"}
{"SMILES": "Nc1ncnc2c1ncn2[C@@H]1O[C@H](C(=O)NCCP(=O)(O)O)[C@@H](NC(=O)[C@H](N)CSCc2ccccc2)[C@H]1O", "strain": "FP633", "result": "25 µg/mL"}
{"SMILES": "CCCCCOc1ccc(-c2ccc(-c3ccc(C(=O)N[C@H]4CCCNC(=O)C5C[C@H](N)CN5C(=O)C(C(C)O)NC(=O)C(OCc5ccccc5)NC(=O)C5CC(O)CN5C(=O)C(C(C)O)NC4=O)cc3)cc2)cc1", "strain": "ATCC CCH442", "result": "1.56 µg/mL"}
{"SMILES": "COc1ccc(C[C@H](N)C(=O)N[C@H]2[C@@H](O)[C@H](n3ccc(=O)[nH]c3=O)O[C@@H]2C(=O)O)cc1", "strain": "FP633", "result": ">100 µg/mL"}
{"SMILES": "CC(=O)N1CCN(c2ccc(OC[C@H]3CO[C@](Cn4ccnc4)(c4ccc(Cl)cc4Cl)O3)cc2)CC1", "strain": "2381E", "result": "0.002 µg/mL"}
{"SMILES": "Cc1c(Cl)[n+](=O)c2cc(Cl)ccc2n1[O-]", "strain": "Clinical isolate 8", "result": "15.6 µg/mL"}
{"SMILES": "CCCCCc1ccc(C(=O)N[C@H]2CCCNC(=O)C3C[C@H](N)CN3C(=O)C(C(C)O)NC(=O)C(CCc3ccc(O)cc3)NC(=O)C3C[C@@H](O)CN3C(=O)C(C(C)O)NC2=O)cc1", "strain": "ATCC CCH442", "result": "25 µg/mL"}
{"SMILES": "Cc1ccc(OC(C)c2n[nH]c(=S)n2C2CCCCC2)cc1", "strain": "Clinical isolates", "result": ">16 µg/mL"}
{"SMILES": "Cc1ccc2c(c1)c1nnc(N3CCN(C)CC3)nc1n2C", "strain": "C316", "result": "2 µg/mL"}
{"SMILES": "CNc1ccc(C(=O)CC(O)CCC(C)C2OC(=O)CC(O)CC(=O)CC(O)CC(O)CC(O)CC(O)CC3(O)CC(O)C(C(=O)N4CCN(CCO)CC4)C(CC(O[C@@H]4O[C@H](C)[C@@H](O)[C@H](NC(=O)CN5CCN(CCO)CC5)[C@@H]4O)/C=C/C=C/C=C/C=C\\C=C/C=C/C=C/C2C)O3)cc1", "strain": "200", "result": "0.03 µg/mL"}
{"SMILES": "COc1ccccc1N1CCN(CCc2nnn(C(C)C(O)(Cn3cncn3)c3ccc(F)cc3F)n2)CC1", "strain": "V-01-191A-261 (resistant)", "result": "8 µg/mL"}
{"SMILES": "CC(Oc1ccc(Cl)cc1)c1nnc(SCC(=O)Nc2nccs2)n1-c1ccccc1", "strain": "Clinical isolates", "result": ">16 µg/mL"}
{"SMILES": "C[C@H]1[C@H](O)[C@@H](C)/C=C/C=C/C=C/C=C/C=C/C=C/C=C/[C@H](O[C@@H]2O[C@H](C)[C@@H](O)[C@H](N)[C@@H]2O)C[C@@H]2O[C@](O)(C[C@@H](O)C[C@@H](O)CC[C@H](O)[C@@H](O)C[C@@H](O)CC(=O)O[C@H]1C)C[C@H](O)[C@H]2C(=O)O", "strain": "ATCC64551", "result": "0.5 µg/mL"}
{"SMILES": "NC(=NC1CCCC1)c1ccc(-c2ccc(-c3ccc(C(N)=NC4CCCC4)cc3)o2)cc1", "strain": "Isolate 2370 fluconazole-resistant", "result": "12.5 µg/mL"}
{"SMILES": "CCCCCOc1ccc(-c2ccc(-c3ccc(C(=O)N[C@H]4CCCNC(=O)[C@@H]5C[C@H](N)CN5C(=O)[C@H](CO)NC(=O)C(CCc5ccc(O)cc5)NC(=O)[C@@H]5C[C@@H](O)CN5C(=O)[C@H]([C@@H](C)O)NC4=O)cc3)cc2)cc1", "strain": "ATCC 10231", "result": "0.1 µg/mL"}
{"SMILES": "CN(CCCC#CC(C)(C)C)c1cccc2c1CCC(=O)N2", "strain": "Clinical isolate 13", "result": "31.25 µg/mL"}
{"SMILES": "C[C@H](n1nnc(CCN2CCN(c3ccc([N+](=O)[O-])cc3)CC2)n1)[C@](O)(Cn1cncn1)c1ccc(F)cc1F", "result": "4 µg/mL"}
{"SMILES": "CNc1ccc(C(=O)CC(O)CCC(C)C2OC(=O)CC(O)CC(=O)CC(O)CC(O)CC(O)CC(O)CC3(O)CC(O)C(C(=O)N4CCN(C)CC4)C(CC(O[C@@H]4O[C@H](C)[C@@H](O)[C@H](NC(=O)CN(C)C)[C@@H]4O)/C=C/C=C/C=C/C=C\\C=C/C=C/C=C/C2C)O3)cc1", "strain": "200", "result": "0.015 µg/mL"}
{"SMILES": "CCOC(=O)Cc1csc(NC(=O)CSc2nnc(C(C)Oc3ccc(C)cc3)n2C2CCCCC2)n1", "strain": "NRRL Y-27077", "result": ">16 µg/mL"}
{"SMILES": "Cc1c(Sc2ccccc2)[n+](=O)c2cc(Cl)ccc2n1[O-]", "strain": "Clinical isolate 19", "result": "7.8 µg/mL"}
{"SMILES": "CCCCCOc1ccc(-c2ccc(-c3ccc(C(=O)N[C@H]4CCCNC(=O)[C@@H]5C[C@H](N)CN5C(=O)[C@H](CC)NC(=O)C(CCc5ccc(O)cc5)NC(=O)[C@@H]5C[C@@H](O)CN5C(=O)[C@H]([C@@H](C)O)NC4=O)cc3)cc2)cc1", "strain": "ATCC 62376", "result": "0.1 µg/mL"}
{"SMILES": "O=[N+]([O-])c1ccc(N2CCN(CCc3nnnn3CC(O)(Cn3cncn3)c3ccc(F)cc3F)CC2)cc1", "strain": "V-01-191A-261 (resistant)", "result": "8 µg/mL"}
{"SMILES": "COc1ccc(C[C@H](N)C(=O)N[C@H]2[C@@H](O)[C@H](n3cnc4c(N(C)C)ncnc43)O[C@@H]2C(=O)O)cc1", "strain": "FP633", "result": ">100 µg/mL"}
{"SMILES": "OC(Cn1cncn1)(Cn1nnc(CCN2CCN(c3ccccc3Cl)CC2)n1)c1ccc(F)cc1F", "strain": "V-01-191A-261 (resistant)", "result": "4 µg/mL"}
{"SMILES": "O=C(c1ccccc1)c1oc2ccc(Cl)cc2c1Cn1cncn1", "strain": "Clinical isolate", "result": "25 µg/mL"}
{"SMILES": "Nc1ncnc2c1ncn2[C@@H]1O[C@H](C(=O)O)[C@@H](NC(=O)C(N)c2ccccc2)[C@H]1O", "strain": "FP633", "result": ">100 µg/mL"}
{"SMILES": "CC(Oc1ccc(Cl)cc1)c1n[nH]c(=S)n1-c1ccccc1", "strain": "Clinical isolates", "result": ">16 µg/mL"}
{"SMILES": "CNc1ccc(C(=O)CC(O)CCC(C)C2OC(=O)CC(O)CC(=O)CC(O)CC(O)CC(O)CC(O)CC3(O)CC(O)C(C(=O)N4CCN(CCO)CC4)C(CC(O[C@@H]4O[C@H](C)[C@@H](O)[C@H](NC(=O)CN5CCN(C)CC5)[C@@H]4O)/C=C/C=C/C=C/C=C\\C=C/C=C/C=C/C2C)O3)cc1", "strain": "200", "result": "0.03 µg/mL"}